A mixed list of measured activities; the numbers were collected in NIAID ChemDB.

Common to all: toxicity to cultured cells; endpoint: CC50

Blank or dashed fields: not listed here. CCn is the concentration with n% toxicity to the cells. Conditions beyond the fields shown may differ between rows.

SMILES,cells,setting,read by,value
CC(C)=CC[C@H]1C[C@@]2(C[C@H]3CCC(C)(C)C=C3C)C(=O)[C@](C(=O)c3ccccc3)(C(=O)C3=C2OC(C)(C)CC3)C1(C)C,HT-29,-,sulforhodamine / absorbance,>50 µM
COC1=CC([C@@H]2c3cc4c(cc3[C@H](O)[C@@H]3COC(=O)[C@H]32)OCO4)=CC(=O)C1=O,MEL-28,-,-,1.3 µM
CCCCn1cc(/C=N/Nc2nncs2)c2ccccc21,Fibroblast L929 cell line,24 h,MTT,>100 µg/mL
Cc1cc(C)cc(NC(=O)NC2N=C(c3ccccc3)c3ccccc3NC2=O)c1,HEP-2,-,-,1.5 µM
CN(C)[C@@H]1C(=O)C(C(N)=O)=C(O)[C@@]2(O)C(=O)C3=C(O)c4c(O)ccc(Cl)c4[C@@](C)(O)C3C[C@@H]12,HeLa,-,-,100 µM
CN1C[C@@H](O)[C@H](O)[C@H]1CO,Karpas 45 cells,-,-,>300 µg/mL
Nc1nc2c(ncn2/C=C2/CC2(CO)CO)c(=O)[nH]1,HeLaP4,-,-,0.068 µM
CC1(C)OC(=O)C(=Cc2ccc([N+](=O)[O-])s2)C(=O)O1,VERO,-,-,4.17 µg/mL
OC[C@H](O)[C@H]1[C@H](O)[C@H](O)CN1Cc1ccccc1,Karpas 45 cells,-,-,>100 µg/mL
COC(=O)C1=C(C)NC(C)=C(C(=O)OCCCN2CCC(c3ccccc3)(c3ccccc3)CC2)C1c1cccc([N+](=O)[O-])c1.Cl,VERO,-,-,2.9 µg/mL
CC(=O)OC(C1CC(C)C(=O)O1)C(C)C1C2C3(O)OC4(CCC12C)C(=CCC1C(C)(C)OC2CC(=O)OC21C4O)C3=O,MDA-MB-231,-,MTT,7.3 µg/mL
O=C(N/N=C(\c1nc2ccc([N+](=O)[O-])cc2[nH]c1=O)C(O)c1ccc([N+](=O)[O-])cc1)c1ccncc1,VERO,-,-,>62.5 µg/mL
OCCOC(CCO)n1cnc2cc(Cl)c(Cl)cc21,E6SM,-,-,≥200 µg/mL
OC1C(O)C(O)C(O)C(O)C1O,BJ,-,ATP,>26 µM
O=c1[nH]cnc2c1ncn2[C@H]1CC[C@@H](CO)O1,HELA-CD4+,-,-,2.6 µM
C[C@@]12C(=O)OC(=O)[C@]1(C)[C@H]1CC[C@@H]2O1,EBTR,-,-,50 µM
NC(=S)N/N=C/c1cn(Cc2ccccc2)c2ccccc12,VERO,-,-,7.2 µg/mL
O=c1c2cc(O)c(O)cc2oc2cc(O)cc(O)c12,P-388,-,sulforhodamine / absorbance,12.34 µM
Nc1ccc(-c2nc(=S)[nH][nH]2)cc1,THP-1,-,MTT,>100 µg/mL
OC[C@@H](O)[C@@H]1NC[C@@H](O)[C@H]1O,Karpas 45 cells,-,-,>160 µg/mL
CCN(CC)c1ccc2nc3c4ccccc4c(=O)cc-3n(-c3ccccc3)c2c1,VERO,-,-,3.7 µg/mL
O=C1c2c(O)cc(O)cc2O[C@H](c2ccc(O)cc2)[C@H]1c1c(O)cc(O)c2c(=O)cc(-c3ccc(O)c(O)c3)oc12,P-388,-,sulforhodamine / absorbance,31.87 µM
Nc1ccn([C@@H]2CC[C@H](CO)O2)c(=O)n1,BFU-E,-,-,3 µM
S=c1[nH]nc(-c2ccc(Cl)cc2)s1,Panc-1,-,MTT,>100 µg/mL
N[C@@H](COP(=O)(O)OC[C@H](O)CO)C(=O)O,HeLa,-,-,>200 µg/mL
Cc1cn([C@H]2CC[C@@H](CO)O2)c(=O)n(NO)c1=O,P3HR-1,-,-,>100 µg/mL
C=C1C(=O)N2c3ccccc3C(C)(C)C2(S)C(=O)N1C,VERO,-,-,>62.5 µg/mL
O=c1[nH]c(=O)c([C@@H]2O[C@H](CO)[C@@H](O)[C@H]2O)co1,HeLa,-,-,100 µg/mL
Cc1cc(OCCOCP(=O)(O)O)nc(N)n1,CCRF-CEM,-,-,<10 µM
C1CCNC1.S=C(S)N1CCCC1,VERO,-,-,33.9 µg/mL
CC/C=C\C[C@H]1C(=O)CC[C@@H]1CC(=O)O,RAJI,-,ATP,>26 µM
CCN(CC)CCNc1ccc(C)c2sc3ccc(O)cc3c(=O)c12.I,VERO,-,-,0.81 µg/mL
N[C@@H]1[C@@H](O)[C@H](O)[C@@H](CO)O[C@H]1O,HeLa,-,-,5000 µM
O=C(O)c1cn(C2CC2)c2cc(N3CCNCC3)c(F)cc2c1=O,VERO,-,-,>62.5 µg/mL
Nc1ncnc2c1ncn2[C@H]1CC[C@@H](CO)O1,Sheep chondrocytes G81092,-,-,>400 µM
CC/C=C\C[C@@H]1[C@@H](CC(=O)OC)CC[C@@H]1O,BJ,-,ATP,>26 µM
Nc1ccn(C[C@@H](CO)OCP(=O)(O)O)c(=O)n1,U138-MG,-,-,130 µg/mL
CCCCC1CN(S(=O)(=O)C2CCOCC2)CCC12CCN(C1(C)CCN(C(=O)c3c(C)ncnc3C)CC1)CC2,CEM-R5,-,-,0.022 µM
CCCCSc1n[nH]c(-c2ccc(O)cc2)n1,THP-1,-,MTT,>100 µg/mL
CC(C)=CC[C@H]1C[C@@]2(C[C@H]3CCC(C)(C)C=C3C)C(=O)[C@](C(=O)c3ccccc3)(C(=O)C3=C2OC(C)(C)C=C3)C1(C)C,ASK (Atlantic salmon kidney),-,sulforhodamine / absorbance,>50 µM
C/C(=N\OCc1ccc(F)cc1)c1c(C)cc(=O)n(O)c1O,HepDES19,7 d,MTS,31.2 µM
Nc1nc(OCCOCP(=O)(O)O)cc(=O)n1CCOCP(=O)(O)O,HeLa S3,-,-,<10 µM
CC1Oc2cc(O)c3c(=O)c4ccc(O)c(O)c4oc3c2C1(C)C,ASK (Atlantic salmon kidney),-,sulforhodamine / absorbance,27.57 µM
CC(=O)NC1NC(c2ccccc2)(c2cccc(Cl)c2)c2ccccc2NC1=O,HEP-2,-,-,3 µM
Nc1nc(Cl)nc2c1ncn2[C@H]1C[C@H](O)[C@@H](CO)O1,Sheep chondrocytes G81092,-,MTT,<50 µM
CCCCC1C(=O)N(CC2CCN(CC(F)F)CC2)CCC12CCN(C1(C)CCN(C(=O)c3c(C)ncnc3C)CC1)CC2,CEM-R5,-,-,0.026 µM
CCCCCCn1cc(/C=N/Nc2nncs2)c2ccccc21,Fibroblast L929 cell line,24 h,MTT,>100 µg/mL
Cc1ccc(NCCNCC(O)CO)c2c(=O)c3ccccc3sc12,VERO,-,-,4.1 µg/mL
O=C(O)[C@H]1NC[C@@H](O)[C@@H](O)[C@@H]1O,Karpas 45 cells,-,-,>160 µg/mL
Nc1ncnc2c1ncn2[C@@H]1C=C[C@@H](O)[C@H]1O,PRK,-,-,9 µg/mL
Nc1nc(Cl)nc2c1ncn2[C@@H]1O[C@H](CO)[C@@H](O)[C@H]1O,Sheep chondrocytes G81092,-,-,<50 µM
O=C(Cc1ccc(Cl)cc1)N/N=C/c1ccc([N+](=O)[O-])s1,VERO,-,-,5.07 µg/mL
COc1cc([C@@H]2c3cc4c(cc3[C@H](OC(C)=O)[C@@H]3COC(=O)[C@@H]23)OCO4)cc2c1OC1(N3CCCC3)CCCCC1O2,P-388,-,-,2.02 µM
Nc1ncnc2c1ncn2[C@@H]1O[C@H](COP(=O)(O)OS(=O)(=O)O)[C@@H](O)[C@H]1O,HeLa,-,-,>1000 µM
O=S(=O)(c1ccccc1)n1cc(/C=N/Nc2nncs2)c2ccccc21,Fibroblast L929 cell line,24 h,MTT,>100 µg/mL
O=C(O)P(=O)(O)O,U87MG,-,-,200 µg/mL
Cc1c2ccncc2c(C)c2c1sc1ccccc12,VERO,-,-,1.93 µg/mL
CC(C)CN(C[C@@H](O)[C@H](Cc1ccc(F)cc1)NC(=O)O[C@H]1CCO[C@H]2OCC[C@H]21)S(=O)(=O)c1ccc2nc(NC(C)C)sc2c1,TM-31,-,MTT,>100 µM
OC[C@H]1O[C@@H](n2cnc3c(NC4CCCC4)nc(Cl)cc32)[C@H](O)[C@@H]1O,MDBK,-,-,228 µM
O[C@H]1[C@@H](O)COC(n2cnc3cc(Cl)c(Cl)cc32)[C@@H]1O,E6SM,-,-,>400 µg/mL
O=C1Nc2ccccc2C(c2ccccc2)=NC1NC(=O)n1c(=O)[nH]c2ccccc21,HEP-2,-,-,4.3 µM
OC[C@H]1NCC[C@@H](O)[C@@H]1O,Karpas 45 cells,-,-,>180 µg/mL
O=[N+]([O-])c1ccc(-c2nc(SCC3CC3)n[nH]2)cc1,THP-1,-,MTT,>100 µg/mL
Nc1nc(N)c2ncn(C[C@@H](CF)OCP(=O)(O)O)c2n1,P3HR-1,-,-,>100 µg/mL
Nc1nc(=O)n([C@@H]2CC[C@H](CO)O2)cc1F,CFU-GM,-,-,12 µM
CN(C)c1cc(=O)n(CCOCP(=O)(O)O)c(N)n1,HeLa S3,-,-,<10 µM
COc1cc(-c2ccccc2)c(OC)c(OC)c1O,P-388,-,sulforhodamine / absorbance,39.04 µM
CCCCC/C=C/C/C=C/CCCCCCCCO,HeLa,-,-,25 µg/mL
CCCCc1[nH]ccc2c(C)c3nc4ccccc4c3cc12,VERO,-,-,1.6 µg/mL
CC/C=C\C[C@@H]1[C@@H](CC(=O)OC)CC[C@H]1O,RAJI,-,ATP,>26 µM
COc1cc([C@@H]2c3cc4c(cc3[C@H](OC(C)=O)[C@@H]3COC(=O)[C@@H]23)OCO4)cc(O)c1O,P-388,-,-,2.8 µM
S=c1nc(-c2ccco2)[nH][nH]1,Panc-1,-,MTT,>100 µg/mL
CC(C)[Si]1(C(C)C)OC[C@H]2O[C@@H](n3cnc4cc(Cl)c(Cl)cc43)[C@@H](O)[C@H]2O[Si](C(C)C)(C(C)C)O1,E6SM,-,-,200 µg/mL
O=C1C=C(Nc2ncccn2)c2ccccc2C1=O,VERO,-,-,0.09 µg/mL
CC(C)[Si]1(C(C)C)OC[C@H]2O[C@@H](n3cnc4cc(Cl)c(Cl)cc43)[C@H](O)[C@H]2O[Si](C(C)C)(C(C)C)O1,E6SM,-,-,≥40 µg/mL
CC1(C)CC[C@]2(C(=O)O)CC[C@]3(C)C(=CC[C@@H]4[C@@]5(C)C[C@@H](O)[C@H](O)C(C)(C)[C@@H]5CC[C@]43C)[C@@H]2C1,BJ,-,ATP,>26 µM
O=C(NC1N=C(c2ccccc2)c2ccccc2NC1=O)C(O)Cc1ccccc1,HEP-2,-,-,5.5 µM
Cc1cc(O)c2c(c1O)C(=O)c1cccc(O)c1C2=O,HeLa,-,-,0.5 µg/mL
OC[C@@H]1C[C@@H](O)[C@H](n2cnc3c(NC4CCCCC4)nccc32)O1,Sheep chondrocytes G81092,-,MTT,>400 µM
O=P(O)(O)COCCn1cnc2c(NC3CCCCC3)ncnc21,P3HR-1,-,-,>100 µg/mL
CCC(C)COC(=O)Nc1cccc(Cl)c1,VERO,-,-,30 µg/mL
Nc1nccc2c1ncn2[C@@H]1C=C[C@@H](O)[C@H]1O,PRK,-,-,8.9 µg/mL
CCN(CC)c1cc2oc3cc(N)cc(=N)c-3nc2cc1C,VERO,-,-,0.993 µg/mL
O=C1N[C@@H](CO)[C@H](O)[C@@H](O)[C@H]1O,Karpas 45 cells,-,-,>500 µg/mL
O=C(NC1NC(c2ccccc2)(c2cccc(Cl)c2)c2ccccc2NC1=O)c1ccncc1,HEP-2,-,-,10 µM
COc1cc([C@@H]2c3cc4c(cc3[C@H](OC(C)=O)[C@@H]3COC(=O)[C@@H]23)OCO4)cc(OC(C)=O)c1OC(C)=O,P-388,-,-,2.2 µM
Clc1ccccc1Cn1cc(/C=N/Nc2nncs2)c2ccccc21,Fibroblast L929 cell line,24 h,MTT,>100 µg/mL
OC[C@@H]1CC[C@H](n2cnc3c(NC4CCCCCC4)nc(Cl)nc32)O1,Sheep chondrocytes G81092,-,-,125 µM
CCCCC1CN(S(C)(=O)=O)CCC12CCN(C1(C)CCN(C(=O)c3c(C)ncnc3C)CC1)CC2,CEM-R5,-,-,0.1 µM
CC(C)=CCC/C(C)=C/CC/C(C)=C/CC[C@@]1(C)CCc2cc(O)cc(C)c2O1,BJ,-,ATP,>26 µM
O=P(O)(O)COCCn1cnc2c(N3CCCCC3)ncnc21,P3HR-1,-,-,>100 µg/mL
c1ccc2c(c1)nc1cc(NC3CCCCC3)c(=NC3CCCCC3)cc-1n2C1CCCCC1,VERO,-,-,28.33 µg/mL
CC(C)CN(C[C@@H](O)[C@H](Cc1cc(F)cc(F)c1)NC(=O)O[C@H]1CCO[C@H]2OCC[C@H]21)S(=O)(=O)c1ccc2nc(NC(C)C)sc2c1,KG-1-C,-,MTT,>100 µM
NC[C@H]1O[C@H](O[C@H]2[C@H](O)[C@@H](O)[C@H](N)C[C@@H]2N)[C@H](N)[C@@H](O)[C@@H]1O,HeLa,-,-,>200 µg/mL
OC[C@H]1O[C@@H](n2cnc3c(NC4CCCCCC4)nc(Cl)nc32)CC1O,Sheep chondrocytes G81092,-,-,98 µM
Nc1cc(=O)n(CCOCP(=O)(O)O)c(N)n1,CCRF-CEM,-,-,<10 µM
CCOC(=O)C(NC(=O)c1cccc(Cl)c1)(N1CCN(c2cc3c(cc2F)c(=O)c(C(=O)O)cn3CC)CC1)C(F)(F)F,VERO,-,-,>10 µg/mL
COc1cc([C@@H]2c3cc4c(cc3[C@H](OC(C)=O)[C@@H]3COC(=O)[C@@H]23)OCO4)cc2nccnc12,MEL-28,-,-,0.56 µM